In paper PMC3616968, “Post-Transcriptional Regulation of the Trypanosome Heat Shock Response by a Zinc Finger Protein”:
The exact form of at least one protein or probe is not confirmed. A weaker result is weaker than the reference pair of the same experiment. At least one verdict rests on a figure or table, not on a statement of the authors. Protein sequences can lack the tags named with them.

Target: T1, ZC3H11-119 (Trypanosoma brucei) (UniProt Q57W26)
T1 sequence (looked up): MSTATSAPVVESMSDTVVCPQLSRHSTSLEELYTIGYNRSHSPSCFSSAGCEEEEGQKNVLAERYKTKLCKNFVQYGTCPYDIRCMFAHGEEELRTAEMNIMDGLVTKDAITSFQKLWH
Experiment: EMSA
Settings: results similar to ZC3H11-104; 20 mM Tris-HCl pH 8.0, 50 mM NaCl, 10 uM ZnCl2, 0.01% IGEPAL CA-630, 0.1 mg/ml tRNA, 10 ug/ml heparin (legends: 5 ug/ml or 10 mg/ml), room temperature 30 min; recombinant protein; residues 1-119; protein details: His10 (called His-tagged); label: 5'-32P (unlabelled as competitor)

AAAAAAAAAAAAAAAAAAAAAAA [A23]
binding result: binds more weakly
